Results reported in US12365710B2, “HMGB1 protein derivatives for the removal of biofilms” (RESEARCH INSTITUTE AT NATIONWIDE CHILDREN'S HOSPITAL, priority 2018, dated 2025).

Test system: NTHI biofilms
Assay type: in vivo, chinchilla
Settings: anti-inflammatory cytokine; data not shown
Method: FIGS. 8A-8F: rHMGB1 and mHMGB1 promote biofilm resolution in an experimental otitis media model. Diluent, 0.2 nmol rHMGB1, or 0.2 nmol mHMGB1 were delivered directly to middle ears of chinchillas at 4 and 5 days post-challenge with NTHI. Animals were sacrificed 24 h later, middle ears were imaged (FIG. 8C, representative images) and, based on the criteria described in (FIG. 8A, biofilm) and (FIG. 8B, inflammation), blindly scored for presence of biofilm (FIG. 8D) and inflammation (FIG. 8F). CFU of NTH1 present in the mucosal biomass were quantified (FIG. 8E). Means and SEM are plotted. **P<0.01, ****P<0.0001.
rHMGB1 and mHMGB1 disrupt biofilms in two distinct animal models but the inflammatory response is strongly attenuated with Cys to Ser mutations: Applicant tested both rHMGB1 and mHMGB1 for their ability to treat middle ear infection and the corresponding inflammatory response using a well-established chinchilla model of experimental OM due to NTHI49,67,68 wherein adhered mucosal biofilm formation plays a key role in pathogenesis (FIG. 8A). […] On day 6, animals were sacrificed and middle ears were imaged and blindly scored for biofilm that remained (FIG. 8A) and mucosal inflammation (FIG. 8B). […] Next, Applicant determined whether rHMGB1 or mHMGB1 could prevent or aggregate biofilm development. […] Next, Applicant assessed the ability of rHMGB1 and mHMGB1 to treat established Bc infection. […]

B1: mHMGB1: engineered C45S variant of full length rHMGB1 that mimics the reduced form of HMGB1 (protein, UniProt P09429 1-215, looked up, variant C45S)
chain: MGKGDPKKPRGKMSSYAFFVQTCREEHKKKHPDASVNFSEFSKKSSERWKTMSAKEKGKFEDMAKADKARYEREMKTYIPPKGETKKKFKDPNAPKRPPSAFFLFCSEYRPKIKGEHPGLSIGDVAKKLGEMWNNTAADDKQPYEKKAAKLKEKYEKDIAAYRAKGKPDAAKKGVVKAEKSKKKKEEEEDEEDEEDEEEEEDEEDEDEEEDDDDE
modifications: full-length
notes: engineered C45S variant of full length rHMGB1 that mimics the reduced form of HMGB1
increased IL-4 in middle ear fluids: 2 fold | increased IL-10 in middle ear fluids: 5 fold
